Anti-infective test results gathered from many reports (values: NIAID ChemDB through PubChem).

Shared fields: host cell toxicity; cell line: PBL; endpoint: CC50

Conditions beyond the fields shown may differ between rows. Blank or dashed fields: not listed here. CCn: concentration that lowers growth or viability of the cells by n%.

| SMILES | method | value |
|---|---|---|
| CSCC[C@H](N)C(=O)N[C@H](C(=O)N[C@@H](CC(C)C)C(=O)N[C@@H](CC(N)=O)C(=O)N[C@@H](Cc1ccccc1)C(=O)O)[C@@H](C)O |  | >200 µg/mL |
| CC(O)Cn1cnc2c(Cl)nc(N)nc21 |  | >100 µM |
| CC(C)C[C@H](NC(=O)[C@@H](N)[C@@H](C)O)C(=O)N[C@@H](CC(N)=O)C(=O)N[C@@H](Cc1ccccc1)C(=O)O |  | >200 µg/mL |
| CC(C)c1nc(Oc2ccc(S(C)(=O)=O)cc2)ccc1CN1CCC(N2C(=O)N(c3cc(C(N)=O)c(F)cc3F)C[C@H]2c2ccccc2)CC1 |  | 1.6 nM |
| Nc1nc2c(ncn2OCCCCP(=O)(O)O)c(=O)[nH]1 | MTT | >100 µM |
| Nc1ncc2ncn(CCCO)c2n1 |  | >100 µM |
| O=C(c1c(O)cc(O)cc1O)c1c(-c2ccc(O)cc2)oc2cc(O)c3c(c12)O[C@H](c1ccc(O)cc1)[C@@H](O)C3 |  | 67 µg/mL |
| CC(=O)N[C@@H](CC(C)C)C(=O)N[C@H](C(=O)N[C@@H](CC(C)C)C(=O)N[C@@H](CC(N)=O)C(=O)N[C@@H](Cc1ccccc1)C(=O)O)[C@@H](C)O |  | >200 µg/mL |
| O=C1c2c(O)cc(O)cc2O[C@]12c1c(cc(O)c3c1O[C@H](c1ccc(O)cc1)CC3)O[C@H]2c1ccc(O)cc1 |  | 65 µg/mL |
| CC(C)C[C@H](NC(=O)[C@@H](NC(=O)[C@@H](N)CC(C)C)[C@@H](C)O)C(=O)N[C@@H](CC(N)=O)C(=O)N[C@@H](Cc1ccccc1)C(=O)O |  | >200 µg/mL |
| CC[C@@]1(O)C(=O)OCc2c1cc1n(c2=O)Cc2cc3c([N+](=O)[O-])cccc3nc2-1 |  | >0.03 µM |
| O=c1cc(CCl)nc2c3ncn([C@@H]4O[C@H](COP(=O)(O)O)[C@@H](O)[C@H]4O)c3ncn12 |  | 150 µM |
| CC[C@H](C)[C@H](NC(=O)[C@H](CCC(N)=O)NC(=O)[C@@H]1CCCN1C(C)=O)C(=O)N[C@H](C(=O)N[C@@H](CC(C)C)C(=O)O)[C@@H](C)O |  | >200 µg/mL |
| CC(CO)n1cnc2c(Cl)nc(N)nc21 |  | >100 µM |
| Cc1nc(Oc2ccc(S(=O)(=O)C(C)C)cc2)ccc1CN1CCC(N2C(=O)N(c3cc(C(N)=O)c(F)cc3F)C[C@H]2c2ccccc2)CC1 |  | 1.1 nM |

For reference, 2 entries again:

| SMILES | method | value |
|---|---|---|
| Nc1ncc2ncn(CCCO)c2n1 |  | >100 µM |
| CC(C)c1nc(Oc2ccc(S(C)(=O)=O)cc2)ccc1CN1CCC(N2C(=O)N(c3cc(C(N)=O)c(F)cc3F)C[C@H]2c2ccccc2)CC1 |  | 1.6 nM |